Anti-infective test results gathered from many reports (values: NIAID ChemDB through PubChem).

Common to all: whole-cell or culture tests; organism: HIV-1

Fold resistance: result on the changed form divided by that on wild type.

Cc1cc(S(N)(=O)=O)ccc1NC(=O)COc1ccc(Cl)cc1C(=O)c1cc(F)cc(F)c1 ; strain: HXB2 ; method: β-galactosidase ; changes: RT-V108I ; cells: HeLa + HELA CD4+ ; read-out: EC50 ; value: <0.01 µM
COc1ccc(S(=O)(=O)N(CC(C)C)C[C@@H](O)CCN(CC2CCCC2)S(=O)(=O)c2ccc(O)cc2)cc1 ; strain: IIIB ; method: p24 ; cells: CEM ; read-out: EC90 ; value: 1 µM
O=C1Nc2ccc(Cl)cc2[C@@](/C=C/C2CC2)(C(F)(F)F)N1 ; changes: RT-K103N ; read-out: EC90 ; value: 0.027 µM
Nc1cccc(S(=O)(=O)N(CC(O)CN(NCc2ccccc2)C(=O)c2ccccc2)CC2CCCC2)c1 ; strain: IIIB ; method: p24 ; cells: CEM ; read-out: EC90 ; value: 1 µM
CC(=O)N(CC1CCCCC1)C1CN(C)CCn2c1nc(C(=O)NCc1ccc(F)cc1)c(O)c2=O ; method: p24 ; cells: MT-4 ; read-out: EC95 ; value: <1 µM
CC(C)[C@H](NC(=O)OCc1ccccn1)C(=O)N[C@@H](Cc1ccccc1)[C@@H](O)C[C@H](Cc1ccccc1)NC(=O)OCc1cccnc1 ; strain: NL4-3 ; method: p24 ; changes: PR-L10R M46I L63P 184V ; cells: MT-4 ; read-out: EC95 ; value: 1.5 µM
CC(C)C1=C2[C@H]3CC[C@@H]4[C@@]5(C)CC[C@H](OC(=O)[C@H]6C[C@@H](C(=O)O)C6(C)C)C(C)(C)[C@@H]5CC[C@@]4(C)[C@]3(C)CC[C@@]2(CC(=O)NCC(C)(C)NC(=O)c2ccc3c(c2)OCO3)CC1=O ; strain: 92HT599 ; method: p24 / ELISA ; cells: MT-2 ; read-out: EC50 ; value: <1 µM
CCC(=O)c1ccc(F)c([C@@H]2C[C@@H]2NC(=O)Nc2ccc(C#N)cn2)c1O ; strain: LAI ; method: β-galactosidase / luminescence ; changes: NNRTI-resistant (RT K101E/Y181C) ; cells: TZM-bl ; read-out: fold resistance ; value: 52.5
Cc1nc(CN2CCn3c(nc(C(=O)NCc4ccc(F)cc4)c(O)c3=O)C2(C)C)no1 ; method: p24 ; cells: MT-4 ; read-out: EC95 ; value: <1 µM
Cc1cc(S(N)(=O)=O)ccc1NC(=O)COc1ccc(Cl)cc1C(=O)c1cc(F)cc(C#N)c1 ; strain: HXB2 ; method: β-galactosidase ; changes: RT-P236L ; cells: HeLa + HELA CD4+ ; read-out: fold resistance ; value: ~1
CC1(C)NC(=O)n2c1nc(C(=O)NCc1ccc(F)cc1)c(O)c2=O ; method: p24 ; cells: MT-4 ; read-out: EC95 ; value: <50 µM
CC(C)C1=C2[C@H]3CC[C@@H]4[C@@]5(C)CC[C@H](OC(=O)[C@H]6C[C@@H](C(=O)O)C6(C)C)C(C)(C)[C@@H]5CC[C@@]4(C)[C@]3(C)CC[C@@]2(CCN(CCN(C)C)Cc2cccc(Cl)c2)CC1=O ; strain: 92HT599 ; method: p24 / ELISA ; cells: MT-2 ; read-out: EC50 ; value: <1 µM
Cc1cc(S(N)(=O)=O)ccc1NC(=O)COc1ccc(Cl)cc1C(=O)c1cccc(C#N)c1 ; strain: HXB2 (RT-K103N G190A) Recombinant ; method: β-galactosidase ; changes: RT-K103N G190A ; cells: HeLa + HELA CD4+ ; read-out: fold resistance ; value: ~10
COCCOc1ccc(CNCC[C@@]23CC[C@]4(C)[C@H](CC[C@@H]5[C@@]6(C)CC[C@H](OC(=O)[C@H]7C[C@@H](C(=O)O)C7(C)C)C(C)(C)[C@@H]6CC[C@]54C)C2=C(C(C)C)C(=O)C3)cc1 ; strain: 92HT599 ; method: p24 / ELISA ; cells: MT-2 ; read-out: EC50 ; value: <1 µM
Cc1nc2cccc(CS(=O)(=O)N(CC3CCCC3)C[C@@H](O)CN(CCc3ccccc3)C(=O)c3ccccc3)c2o1 ; strain: IIIB ; method: p24 ; cells: CEM ; read-out: EC90 ; value: 1 µM
Cc1cc(CN2CCn3c(nc(C(=O)NCc4ccc(F)cc4)c(O)c3=O)C2(C)C)on1 ; method: p24 ; cells: MT-4 ; read-out: EC95 ; value: <1 µM
Cc1cc(S(N)(=O)=O)ccc1NC(=O)COc1ccc(Cl)cc1C(=O)c1cc(F)cc(C(F)(F)F)c1 ; strain: HXB2 ; method: β-galactosidase ; changes: RT-Y188C ; cells: HeLa + HELA CD4+ ; read-out: fold resistance ; value: ~1
CC(C)C1=C2[C@H]3CC[C@@H]4[C@@]5(C)CC[C@H](OC(=O)[C@H]6C[C@@H](C(=O)O)C6(C)C)C(C)(C)[C@@H]5CC[C@@]4(C)[C@]3(C)CC[C@@]2([C@@H](O)CNC(=O)C(C)(C)NC(=O)c2ccc(Cl)cc2O[C@@H]2CCOC2)CC1=O ; strain: 92HT599 ; method: p24 / ELISA ; cells: MT-2 ; read-out: EC50 ; value: <1 µM
Cc1cc(S(N)(=O)=O)ccc1NC(=O)COc1ccc(Cl)cc1C(=O)c1cc(Cl)cc(C#N)c1 ; strain: HXB2 ; method: β-galactosidase ; changes: RT-V106I ; cells: HeLa + HELA CD4+ ; read-out: fold resistance ; value: ~1
O=C1Nc2ccc(F)c(F)c2[C@@](C#CC2CC2)(C(F)(F)F)N1 ; read-out: EC90 ; value: 0.0009 µM
COc1ccnc2[nH]cc(C(=O)C(=O)N3C4CCCC3CN(C(=O)c3ccccc3)C4)c12 ; strain: 6535 ; method: luciferase ; cells: TZM-bl ; read-out: EC99 ; value: 22 µM
Cc1cc(C#N)cc(C(=O)c2cc(Cl)ccc2OCC(=O)Nc2ccc(S(N)(=O)=O)nc2C)c1 ; strain: HXB2 ; method: β-galactosidase ; changes: RT-P225H ; cells: HeLa + HELA CD4+ ; read-out: fold resistance ; value: ~1
COc1ccc(S(=O)(=O)N(CC(C)C)CC(O)CN[C@H]2c3ccccc3CC2O)cc1 ; strain: IIIB ; method: p24 ; cells: CEM ; read-out: EC90 ; value: 1 µM
Cc1cc(OCCCS(N)(=O)=O)ccc1NC(=O)COc1ccc(Cl)cc1C(=O)c1cc(F)cc(C(F)(F)F)c1 ; strain: HXB2 ; method: β-galactosidase ; changes: RT-K103N P225H ; cells: HeLa + HELA CD4+ ; read-out: fold resistance ; value: ~1
CC(C)C1=C2[C@H]3CC[C@@H]4[C@@]5(C)CC[C@H](OC(=O)[C@H]6C[C@@H](C(=O)O)C6(C)C)C(C)(C)[C@@H]5CC[C@@]4(C)[C@]3(C)CC[C@@]2([C@@H](O)CNCC(C)(C)NC(=O)c2ccc(CN3CCOCC3)cc2)CC1=O ; strain: 92HT599 ; method: p24 / ELISA ; cells: MT-2 ; read-out: EC50 ; value: <1 µM
COc1ccnc2[nH]cc(C(=O)C(=O)N3C4CC3CN(C(=O)c3ccccc3)C4)c12 ; strain: SF162 ; method: luciferase ; cells: TZM-bl ; read-out: EC90 ; value: >250 µM
Cc1nc2ccc(C(=O)NC(C)(C)CNC[C@H](O)[C@@]34CC[C@]5(C)[C@H](CC[C@@H]6[C@@]7(C)CC[C@H](OC(=O)[C@H]8C[C@@H](C(=O)O)C8(C)C)C(C)(C)[C@@H]7CC[C@]65C)C3=C(C(C)C)C(=O)C4)cc2[nH]1 ; strain: 92HT599 ; method: p24 / ELISA ; cells: MT-2 ; read-out: EC50 ; value: <1 µM
O=C(O)c1cc(-n2cccc2)ccc1Cl ; strain: 92US657 R5 CLADE B ; method: luciferase / cell fusion ; cells: PBMC/5.25M7 ; read-out: EC90 ; value: 99.01 µM
CC(C)C1=C2[C@H]3CC[C@@H]4[C@@]5(C)CC[C@H](OC(=O)[C@H]6C[C@@H](C(=O)O)C6(C)C)C(C)(C)[C@@H]5CC[C@@]4(C)[C@]3(C)CC[C@@]2([C@@H](O)CNCC(C)(C)NC(=O)c2ccccc2Cl)CC1=O ; strain: 92HT599 ; method: p24 / ELISA ; cells: MT-2 ; read-out: EC50 ; value: <1 µM
CN(CC1c2nc(C(=O)NCc3ccc(F)cc3)c(O)c(=O)n2CCN1C)C(=O)CS(C)(=O)=O ; method: p24 ; cells: MT-4 ; read-out: EC95 ; value: <50 µM
Cc1cc2[nH]cnc2cc1NC(=O)COc1ccc(Cl)cc1C(=O)c1cc(F)cc(C(F)(F)F)c1 ; strain: HXB2 ; method: β-galactosidase ; changes: RT-V106A Y181C ; cells: HeLa + HELA CD4+ ; read-out: fold resistance ; value: ~100
CC(C)C1=C2[C@H]3CC[C@@H]4[C@@]5(C)CC[C@H](OC(=O)[C@H]6C[C@@H](C(=O)O)C6(C)C)C(C)(C)[C@@H]5CC[C@@]4(C)[C@]3(C)CC[C@@]2([C@@H](O)CNCC(C)(CCN)NC(=O)c2ccc(Cl)cc2)CC1=O ; strain: 92HT599 ; method: p24 / ELISA ; cells: MT-2 ; read-out: EC50 ; value: <1 µM

ECn: concentration that inhibits the pathogen or its effect by n%. Conditions beyond the fields shown may differ between rows.